PMC5462475, “A conformational switch high-throughput screening assay and allosteric inhibition of the flavivirus NS2B-NS3 protease” (PLoS Pathogens, 2017)

Biological target: linked DENV2 NS2B-NS3 (Dengue virus type 2, UniProt P14340)
Test: Protein thermal shift assay (PTSA), linked WT DENV2 NS2B-NS3

## O=C1C=CC(=NNc2ccc([N+](=O)[O-])cc2Cl)C=C1C(=O)Nc1cccc(Cl)c1 [NSC135618]
Linked NS2B-NS3 2.5 μM, compound 4.8 μM
  increase of melting temperature (ΔTm) vs DMSO: 2.6 °C
read-out: ΔTm (WT)
  ΔTm at 4.8 µM: 2.64 °C
